# Results reported in article PMC9614474 (Plant Physiology, 2022).
# Chains of the proteins cited; added tags and fusions are not shown. Residues count along the entry.
# UniProt G4N906, 17-162 limits assumed: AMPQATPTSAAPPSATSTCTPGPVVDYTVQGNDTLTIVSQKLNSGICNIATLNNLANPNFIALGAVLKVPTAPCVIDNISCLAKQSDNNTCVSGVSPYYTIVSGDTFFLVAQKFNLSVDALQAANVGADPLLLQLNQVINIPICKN
# Target: MoSlp1 (Pyricularia oryzae, UniProt G4N906)
# Assay: ligand-induced polymerization, centrifugation pellet with methylene blue
# Conditions: 100 µM protein, 1 mM oligomer, room temperature, overnight
compound,measurement,value
"CC(=O)N[C@H]1[C@H](O[C@H]2[C@H](O)[C@@H](NC(C)=O)[C@H](O[C@H]3[C@H](O)[C@@H](NC(C)=O)C(O)O[C@@H]3CO)O[C@@H]2CO)O[C@H](CO)[C@@H](O[C@@H]2O[C@H](CO)[C@@H](O[C@@H]3O[C@H](CO)[C@@H](O[C@@H]4O[C@H](CO)[C@@H](O)[C@H](O)[C@H]4NC(C)=O)[C@H](O)[C@H]3NC(C)=O)[C@H](O)[C@H]2NC(C)=O)[C@@H]1O (stereo partly shown) [Chi6, hexaacetylchitohexaose]","ligand-induced polymerization, centrifugation pellet with methylene blue",clear pellets were formed upon incubation of these proteins with chitin
